Results of unrelated studies side by side (data: NIAID ChemDB).

Common to all: tests in culture; species: Mycobacterium avium complex; measure: MIC

Lines come from different laboratories, so protocols vary.

SMILES | strain or isolate | value
CCn1cc(C(=O)O)c(=O)c2cc(F)c(N3CCNCC3)cc21 | Isolate 861589 | >30 µg/mL
CO[C@H]1/C=C/O[C@@]2(C)Oc3c(C)c(O)c4c(O)c(c(/C=N/N5CCN(C)CC5)c(O)c4c3C2=O)NC(=O)/C(C)=C\C=C\[C@H](C)[C@H](O)[C@@H](C)[C@@H](O)[C@@H](C)[C@H](OC(C)=O)[C@@H]1C | 804/HIV+ | 2 µg/mL
CN[C@@H]1[C@H](O[C@H]2[C@H](O[C@H]3[C@H](O)[C@@H](O)[C@H](N=C(N)N)[C@@H](O)[C@@H]3N=C(N)N)O[C@@H](C)[C@]2(O)C=O)O[C@@H](CO)[C@H](O)[C@H]1O | Isolate 135 | 25 µg/mL
CC[C@H]1OC(=O)[C@H](C)[C@@H](O[C@H]2C[C@@](C)(OC)[C@@H](O)[C@H](C)O2)[C@H](C)[C@@H](O[C@@H]2O[C@H](C)C[C@H](N(C)C)[C@H]2O)[C@](C)(OC)C[C@@H](C)C(=O)[C@H](C)[C@@H](O)[C@]1(C)O | 1168 | 4 µg/mL
CN1CCN(c2cc3c(cc2F)c(=O)c(C(=O)O)cn3-c2ccc(F)cc2)CC1 | 3214 | 16 µg/mL
O=C(O)c1cn(C2CC2)c2c(F)c(N3CCN4CCC3C4)c(F)cc2c1=O | 1172733 | 4 µg/mL
Clc1ccccc1CSc1nc2ccccc2[nH]1 | MY330/88 | >62 µM
NC[C@H]1O[C@H](O[C@H]2[C@H](O)[C@@H](O[C@H]3O[C@H](CO)[C@@H](O)[C@H](N)[C@H]3O)[C@H](N)C[C@@H]2N)[C@H](N)[C@@H](O)[C@@H]1O | Isolate 49 | 12.5 µg/mL
NCCC(O)C(N)CC(=O)NC1CNC(=O)C(C2CCN=C(N)N2)NC(=O)/C(=C/NC(N)=O)NC(=O)C(CO)NC(=O)C(CO)NC1=O | 13008 (serotype 20) | 6.25 µg/mL
NCCC[C@H](N)CC(=O)N[C@H]1CNC(=O)[C@H]([C@H]2C[C@H](O)NC(N)=N2)NC(=O)/C(=C/NC(N)=O)NC(=O)[C@H](CO)NC(=O)[C@H](CO)NC1=O | TMC 1467 | 0.19 µg/mL
CN[C@@H]1[C@H](O[C@H]2[C@H](O[C@H]3[C@H](O)[C@@H](O)[C@H](N=C(N)N)[C@@H](O)[C@@H]3N=C(N)N)O[C@@H](C)[C@]2(O)C=O)O[C@@H](CO)[C@H](O)[C@H]1O | Isolate C-20 | >400 µg/mL
NC[C@H]1O[C@H](O[C@H]2[C@H](O)[C@@H](O[C@H]3O[C@H](CO)[C@@H](O)[C@H](N)[C@H]3O)[C@H](N)C[C@@H]2N)[C@H](O)[C@@H](O)[C@@H]1O | N-979 (HIV+) | 4 µg/mL
NC[C@H]1O[C@H](O[C@H]2[C@H](O[C@@H]3O[C@H](CO)[C@@H](O)[C@H]3O)[C@@H](O)[C@H](N)C[C@@H]2N)[C@H](N)[C@@H](O)[C@@H]1O | TMC 1411 | 0.19 µg/mL
NCC[C@H](O)C(=O)N[C@@H]1C[C@H](N)[C@@H](O[C@H]2O[C@H](CN)[C@@H](O)[C@H](O)[C@H]2O)[C@H](O)[C@H]1O[C@H]1O[C@H](CO)[C@@H](O)[C@H](N)[C@H]1O | 535/HIV+ | 1.25 µg/mL
CN(C)C1CCN(c2c(F)cc3c(=O)c(C(=O)O)cn(C4CC4)c3c2F)C1 | 1915112 | 1 µg/mL
CC[C@@H](CO)NCCN[C@@H](CC)CO | 3212 | 32 µg/mL
CC1CCN(c2c(F)cc3c(=O)c(C(=O)O)cn(C4CC4)c3c2F)C1 | PI12/39 | 2 µg/mL
CO[C@H]1/C=C/O[C@@]2(C)Oc3c(C)c(O)c4c(O)c(c5c(c4c3C2=O)NC2(CCN(CC(C)C)CC2)N=5)=NC(=O)/C(C)=C\C=C\[C@H](C)[C@H](O)[C@@H](C)[C@@H](O)[C@@H](C)[C@H](OC(C)=O)[C@@H]1C | 2020-4 | 0.5 µg/mL
NC[C@H]1O[C@H](O[C@H]2[C@H](O)[C@@H](O[C@H]3O[C@H](CO)[C@@H](O)[C@H](N)[C@H]3O)[C@H](N)C[C@@H]2N)[C@H](O)[C@@H](O)[C@@H]1O | Isolate 135 | 25 µg/mL
O=[N+]([O-])c1ccc(CSc2nc3ccccc3[nH]2)cc1 | MY330/88 | 8 µM
CC1CN(c2c(F)cc3c(=O)c(C(=O)O)cn(C4CC4)c3c2F)C(C)CN1 | 1915112 | 4 µg/mL
NC(=S)c1cccc(CSc2nc3ccccc3[nH]2)c1 | MY330/88 | 125 µM
NNC(=O)c1ccncc1 | 1171 | 4 µg/mL
O=C(O)c1cn(C2CC2)c2c(F)c(N3CCSCC3)c(F)cc2c1=O | 1172733 | 8 µg/mL
CC[C@H]1OC(=O)[C@H](C)[C@@H](O[C@H]2C[C@@](C)(OC)[C@@H](O)[C@H](C)O2)[C@H](C)[C@@H](O[C@@H]2O[C@H](C)C[C@H](N(C)C)[C@H]2O)[C@](C)(O)C[C@@H](C)C(=O)[C@H](C)[C@@H](O)[C@]1(C)O | 3219 | 32 µg/mL
CC1COc2c(N3CCN(C)CC3)c(F)cc3c(=O)c(C(=O)O)cn1c23 | 804/HIV+ | 16 µg/mL
Fc1ccc(CSc2nc3ccccc3[nH]2)cc1F | MY330/88 | 32 µM
CC[C@@H](CO)NCCN[C@@H](CC)CO | N-979 (HIV+) | 1 µg/mL
CN[C@@H]1[C@@H](O)[C@@H](O[C@@H]2[C@@H](O)[C@H](O[C@H]3O[C@H](CN)CC[C@H]3N)[C@@H](N)C[C@H]2N)OC[C@]1(C)O | TMC 1411 | <0.01 µg/mL
CCn1cc(C(=O)O)c(=O)c2cc(F)c(N3CCNCC3)nc21 | CIPT 140310034 | 10 µg/mL
Clc1ccc(CSc2nc3ccccc3[nH]2)cc1Cl | MY330/88 | 16 µM
CN[C@@H]1[C@H](O[C@H]2[C@H](O[C@H]3[C@H](O)[C@@H](O)[C@H](N=C(N)N)[C@@H](O)[C@@H]3N=C(N)N)O[C@@H](C)[C@]2(O)C=O)O[C@@H](CO)[C@H](O)[C@H]1O | 13034 (serotype 18) | >100 µg/mL
NC[C@@H]1O[C@H](O[C@H]2[C@@H](O)[C@H](O[C@@H]3[C@@H](O)[C@H](N)C[C@H](N)[C@H]3O[C@H]3O[C@H](CO)[C@@H](O)[C@H](O)[C@H]3N)O[C@@H]2CO)[C@H](N)[C@@H](O)[C@@H]1O | 549/HIV+ | <1.56 µg/mL
O=C(O)c1cn(C2CC2)c2c(F)c(N3CCS(=O)CC3)c(F)cc2c1=O | 1172733 | 1 µg/mL
Fc1ccc(CSc2nc3ccccc3[nH]2)cc1 | MY330/88 | 62 µM
C[C@@H]1CN(c2c(F)c(N)c3c(=O)c(C(=O)O)cn(C4CC4)c3c2F)C[C@H](C)N1 | 1172733 | 2 µg/mL
O=[N+]([O-])c1cccc(F)c1CSc1nc2ccccc2[nH]1 | MY330/88 | 125 µM
O=C(O)c1cn(C2CC2)c2c(F)c(N3CC4CC3CN4)c(F)cc2c1=O | 1988557 | 2 µg/mL
CO[C@H]1/C=C/O[C@@]2(C)Oc3c(C)c(O)c4c(O)c(c(/C=N/N5CCN(C/C=C/c6ccccc6)CC5)c(O)c4c3C2=O)NC(=O)/C(C)=C\C=C\[C@H](C)[C@H](O)[C@@H](C)[C@@H](O)[C@@H](C)[C@H](OC(C)=O)[C@@H]1C | LR545 | ≤0.015 µg/mL

4 of the rows above, restated:

SMILES	strain or isolate	value
NC[C@H]1O[C@H](O[C@H]2[C@H](O)[C@@H](O[C@H]3O[C@H](CO)[C@@H](O)[C@H](N)[C@H]3O)[C@H](N)C[C@@H]2N)[C@H](O)[C@@H](O)[C@@H]1O	Isolate 135	25 µg/mL
CN[C@@H]1[C@@H](O)[C@@H](O[C@@H]2[C@@H](O)[C@H](O[C@H]3O[C@H](CN)CC[C@H]3N)[C@@H](N)C[C@H]2N)OC[C@]1(C)O	TMC 1411	<0.01 µg/mL
CN(C)C1CCN(c2c(F)cc3c(=O)c(C(=O)O)cn(C4CC4)c3c2F)C1	1915112	1 µg/mL
CCn1cc(C(=O)O)c(=O)c2cc(F)c(N3CCNCC3)nc21	CIPT 140310034	10 µg/mL